Measured values from several laboratories, pooled; numbers as filed in NIAID ChemDB.

Shared fields: growth or infection tests; agent: HIV-1; read by: cytopathic effect / XTT; measure: EC50

Two numbers with a dash give a range or band. Blank or dashed fields: not listed here. ECn is the concentration giving n% inhibition of infection, replication or growth. Neighbouring rows are from separate reports.

smiles,changes,strain or isolate,cells,value
CCCN(CCCC[C@H](NC(C)=O)C(=O)NCc1ccccc1)C(=O)N(C)N=O,,IIIB,CEM-IW + CEM,>100 µM
OC[C@@H]1C=C[C@H](n2cnc3c(=S)nc[nH]c32)C1,,IIIB,MT-2,>10 µg/mL
CC(=O)Nc1ccc(SSc2ccc(NC(C)=O)cc2C(N)=O)c(C(N)=O)c1,,6R (AZT-resistant),MT-4,1.6 µM
NC(=O)c1ccc(NC(=O)c2ccccc2SSc2ccccc2C(=O)Nc2ccc(C(N)=O)cc2)cc1,,,CEM,2.3 µM
Cc1ccc(C(=O)Nc2cccc(C(=O)N/N=C/c3ccc(Br)cc3)c2)cc1,,IIIB,MT-2,>100 µg/mL
S=C1NNC2(C(=S)N1)c1ccccc1-c1ccccc12,,,CEM,>0.63 µM
C=CCNC(=O)N(CCC[C@H](NC(C)=O)C(=O)NCc1ccccc1)Cc1ccccc1,,IIIB,CEM-IW + CEM,>100 µM
CC(C)C[C@@H](CO)NC(=O)c1ccccc1SSc1ccccc1C(=O)N[C@H](CO)CC(C)C,,IIIB,CEM,>12.4 µM
Cc1occc1C(=S)Nc1ccc(Cl)c(/C=N/OC(C)(C)C)c1,RT-D67N K70R Y181C T215Y K219Q,4XAZT/Y181C (RT D67N K70R Y181C T215Y K219Q),CEM + CEM-SS,0.2 µM
O=C(NCCc1ccccc1)Nc1nc2ccc(Cl)cc2s1,,,MT-4,<10 µg/mL
CC(C)=CCOc1cc(NC(=S)c2ccsc2C)ccc1Cl,RT-M184V,NL4-3 (RT M184V),CEM + CEM-SS,0.01 µM
O=C(O)CNC(=O)c1ccccc1SSc1ccccc1C(=O)NCC(=O)O,,,CEM,51 µM
NC(=O)CCNC(=O)c1ccccc1SCc1ccccc1,,,Monocyte macrophages,>100 µM
CCCNc1nc(N)nc2c1ncn2[C@H]1C=C[C@@H](CO)C1,,IIIB,MT-2,15.5 µM
O=C(NCCc1ccccc1)Nc1ccn[nH]1,,,MT-4,>100 µg/mL
C#CCNC(=O)NCCC[C@H](NC(C)=O)C(=O)NCc1ccccc1,,IIIB,CEM-IW + CEM,>100 µM
CCC[C@H](NC(=O)c1ccccc1SSc1ccccc1C(=O)N[C@@H](CCC)C(=O)O)C(=O)O,,IIIB,CEM,28.5 µM
CN1CCN(C(=S)NCCc2ccccc2)CC1,,,MT-4,>100 µg/mL
CC(=O)N[C@@H](CCCCN(Cc1ccccc1)C(=O)N(C)N=O)C(=O)NCc1ccccc1,,IIIB,CEM-IW + CEM,>100 µM
FC(F)(F)c1ccc(C2ON=C(c3ccccc3)N2C23CC4CC(CC(C4)C2)C3)cc1,,,CEM,>2 µM
Cc1ccnc(SC(F)(F)c2nc3ccccc3o2)n1,RT-P236L,HEPT (RT P236L),CEM + CEM-SS,0.11 µM
COc1cccc(C2ON=C(c3ccccc3)N2C23CC4CC(CC(C4)C2)C3)c1,,,CEM,>2 µM
Nc1nc(NC2CC2)c2ncn([C@H]3C=C[C@@H](CO)C3)c2n1,,RF,C8166,2.9 µM
CC(C)(C)c1csc(NC(=O)NCCc2ccccc2)n1,,,MT-4,>100 µg/mL
C=CCN(N=O)C(=O)N(CCC[C@H](NC(C)=O)C(=O)NCc1ccccc1)Cc1ccccc1,,IIIB,CEM-IW + CEM,>100 µM
CN(C)C1=C(C#N)/C(=C2/C(C#N)=C(N(C)C)N(c3ccc([N+](=O)[O-])cc3)c3c2n(C)c2ccccc32)c2c(c3ccccc3n2C)N1c1ccc([N+](=O)[O-])cc1,,6S/AZT,CEM + CEM-SS,0.5–1.41 µM
COc1ccccc1C(=O)N(C)c1ccc(Cl)c(C(=O)OC(C)C)c1,,RF,CEM + CEM-SS,>100 µM
C=CCNC(=O)NC(=O)CSC1=NNC2(C(=O)N1)c1ccccc1-c1ccccc12,,,CEM,>63 µM
COc1ccc([C@H]2c3ccccc3S(=O)(=O)N2C)cc1,,RF,CEM + CEM-SS,>200 µM
CN(C)c1ccc(C2ON=C(c3ccccc3)N2C23CC4CC(CC(C4)C2)C3)cc1,,,CEM,>0.63 µM
CCCCN1C(=O)[C@@H](Cc2ccccc2)NC1=S,,,MT-4,<10 µg/mL
C=CSC(NC(=O)[C@H](Cc1ccccc1)NS(=O)(=O)N1CCOCC1)C(=O)N[C@@H](CC1CCCCC1)[C@@H](O)C[C@H](C(=O)NCCCC)C(C)C,,IIIB,MT-2,>13 µM
Cn1cc(NC(=O)Nc2cc(C(=O)Nc3cc(C(=O)Nc4ccc(S(=O)(=O)O)c5cc(S(=O)(=O)O)ccc45)n(C)c3)n(C)c2)cc1C(=O)Nc1cc(C(=O)Nc2ccc(S(=O)(=O)O)c3cc(S(=O)(=O)O)ccc23)n(C)c1,,6R(AZT),MT-4,4.5 µM
CCCCCC(NC(=O)c1ccccc1SSc1ccccc1C(=O)NC(CCCCC)C(=O)O)C(=O)O,,IIIB,CEM,6.9 µM
CN(C)c1nc(N)nc2c1ncn2[C@H]1C=C[C@@H](CO)C1,,IIIB,MT-2,10.6 µM
CCC(C)C(NC(=O)c1ccccc1SSc1ccccc1C(=O)NC(C(=O)O)C(C)CC)C(=O)O,,IIIB,CEM + CEM-SS,1.6 µM
CC(C)=CCN1Cc2cccc3[nH]c(=O)n(c23)CC1C,RT-Y181C,UC781-R (RT-Y181C),CEM + CEM-SS,11.8 µM
FC(F)(Sc1ncccn1)c1nc2ccccc2o1,RT-D67N K70R T215Y K219Q,4xAZT(RT-D67N K70R T215Y K219Q),CEM + CEM-SS,0.373 µM
Cc1cccc2sc(NC(=O)NCCc3ccccc3)nc12,,,MT-4,>10 µg/mL
C=CCNC(=O)NCCC[C@H](NC(C)=O)C(=O)NCc1ccccc1,,IIIB,CEM-IW + CEM,>100 µM
O=C1NC(=S)N[C@@H]1Cc1ccccc1,,,MT-4,>10 µg/mL
C=C(C)C[C@H](NC(=O)c1ccccc1SSc1ccccc1C(=O)N[C@@H](CC(=C)C)C(=O)O)C(=O)O,,IIIB,CEM,12 µM
CN1N=C(N)c2cn([C@@H]3O[C@H](COP(=O)(O)O)[C@@H](O)[C@H]3O)c3ncnc1c23,,214,CEM + CEM-SS,0.08 µM
O=C(O)C(SC1=NNC2(C(=O)N1)c1ccccc1-c1ccccc12)SC1=NNC2(C(=O)N1)c1ccccc1-c1ccccc12,,,CEM,>20 µM
Cc1ccc([C@H]2c3ccccc3S(=O)(=O)N2C)cc1,,RF,CEM + CEM-SS,1.53 µM
CCCN(CCCC[C@H](NC(C)=O)C(=O)NCc1ccccc1)C(=O)NCCCl,,IIIB,CEM-IW + CEM,>100 µM
c1ccc(C2=NOC(c3ccccc3)N2C23CC4CC(CC(C4)C2)C3)cc1,,,CEM,<63 µM
CC=CCOc1cc(NC(=S)c2ccoc2C)ccc1OC,RT-K103N,NL4-3,CEM + CEM-SS,3.2 µM
C=CCOc1nc(N)nc2c1ncn2[C@H]1C=C[C@@H](CO)C1,,IIIB,MT-2,5.42 µM
S=C1N=C(Cl)C2(NN1)c1ccccc1-c1ccccc12,,,CEM,>20 µM
N#Cc1csc(NC(=O)NCCc2ccccc2)n1,,,MT-4,>100 µg/mL
CC(C)=CCN1CC(C)Cn2c(=S)[nH]c3cccc1c32,RT-K103N Y181C,A17,CEM(SS) + CEM-SS,>26.2 µM
NS(=O)(=O)c1ccc(CNC(=O)c2ccccc2SSc2ccccc2C(=O)NCc2ccc(S(N)(=O)=O)cc2)cc1,,,CEM,1.4 µM
CCCc1cc(=O)oc2c3c(c4c(c12)OC(C)(C)CC4)O[C@H](C)[C@@H](C)C3=O,,ADA,Macrophage + Macrophages,1.76 µM
[O-][n+]1onc2ncnc(N3CC[N+]4(CC3)CC[N+]3(CCN(c5ncnc6no[n+]([O-])c56)CC3)CC4)c21,,IIIB,MT-4,5.7 µM
CC(C)C(NC(=O)c1ccccc1SSc1ccccc1C(=O)NC(C(=O)O)C(C)C)C(=O)O,,,CEM,17 µM
Nc1ncnc2c1ncn2[C@H]1C=C[C@@H](CO)C1,,IIIB,MT-2,2.3 µg/mL
O=C(NCc1ccccc1)c1ccccc1SSc1ccccc1C(=O)NCc1ccccc1,,,CEM,5 µM
Nc1nc2c(ncn2[C@H]2C=C[C@@H](CO)C2)c(=O)[nH]1,,IIIB,CEM,0.66 µg/mL
O=C(NCCO)c1ccccc1SSc1ccccc1C(=O)NCCO,,,CEM,4.5 µM
O=C1N=C2SC=C(NC(=S)Nc3ccccc3)N2NC12c1ccccc1-c1ccccc12,,,CEM,>20 µM
CCCOc1nc(N)nc2c1ncn2[C@H]1C=C[C@@H](CO)C1,,IIIB,MT-2,5.88 µM
CCCc1cc(=O)oc2c3c(c4c(c12)OC(C)(C)CC4)O[C@@H](C)[C@H](C)[C@@H]3O,RT-L74V,NL4-3,CEM + CEM-SS,0.6 µM
C=CCO/N=C/c1cc(NC(=S)c2ccoc2C)ccc1Cl,RT-K101E,NL4-3,CEM + CEM-SS,0.9 µM
CC[C@H](C)[C@@H](CCC(=O)O)NC(=O)c1ccccc1SSc1ccccc1C(=O)N[C@H](CCC(=O)O)[C@@H](C)CC,,IIIB,CEM,4.9 µM
Cc1occc1C(=S)Nc1ccc(Cl)c(C(=O)OC(C)C)c1,RT-V179D,NL4-3,CEM + CEM-SS,0.6 µM
CC(C)=CCOc1cc(NC(=S)c2ccoc2C)ccc1Cl,,IIIB,U-937,0.005 µM
O=C1[C@@H](c2ccc(-c3ccccc3)cc2)NC(=S)N1c1ccccc1,,,MT-4,>10 µg/mL
Cc1occc1C(=S)Nc1ccc(Cl)c(C(=O)OCC2CC2)c1,RT-L74V,NL4-3,CEM + CEM-SS,0.05 µM

For reference, 5 entries again:

smiles	changes	strain or isolate	cells	value
Cc1cccc2sc(NC(=O)NCCc3ccccc3)nc12			MT-4	>10 µg/mL
CC(=O)N[C@@H](CCCCN(Cc1ccccc1)C(=O)N(C)N=O)C(=O)NCc1ccccc1		IIIB	CEM-IW + CEM	>100 µM
CCCNc1nc(N)nc2c1ncn2[C@H]1C=C[C@@H](CO)C1		IIIB	MT-2	15.5 µM
C=CCNC(=O)NC(=O)CSC1=NNC2(C(=O)N1)c1ccccc1-c1ccccc12			CEM	>63 µM
C=CCNC(=O)NCCC[C@H](NC(C)=O)C(=O)NCc1ccccc1		IIIB	CEM-IW + CEM	>100 µM